Compound potency records, mixed from different reports. Data source: NIAID ChemDB in PubChem.

All rows: growth or infection tests; species: Coxsackie virus; read-out: EC50

An empty or dashed field is not shown. Two numbers with a dash give a range or band. ECn is the concentration giving n% inhibition of infection, replication or growth. Lines come from different laboratories, so protocols vary.

compound,strain or isolate,cell line,read by,value
CSc1nsc(-c2ccc(OCCOc3ccc([N+](=O)[O-])cc3)cc2)c1C#N,TYPE B1,HEP-2/L-929/VERO,plaque count,>1 µM
CSc1nsc(-c2ccc[n+](C)c2)c1C#N,TYPE B1,HEP-2,plaque count,>1250 µM
Cc1cc(CCCCCOc2c(Cl)cc(C3=NCCO3)cc2Cl)on1,B4,RD-2,plaque count,0.02 µg/mL
CSc1nsc(-c2ccc(OCCCOc3ccc([N+](=O)[O-])cc3)cc2)c1C#N,TYPE B1,HEP-2/L-929/VERO,plaque count,>0.5 µM
Cc1ccc(CCCOc2cc(C)c(-c3noc(C(F)(F)F)n3)c(C)c2)nn1,-,HeLa,cytopathic effect,0.033–0.659 µg/mL
N#Cc1c(-c2ccccc2)s[nH]c1=S,TYPE B1,HEP-2,plaque count,>60 µM
Cc1ccc(CCCOc2cc(C)c(-c3noc(C(F)F)n3)c(C)c2)nn1,-,HeLa,cytopathic effect,0.033–0.659 µg/mL
CSc1nsc(-c2ccc(OCCCCOc3ccccc3)cc2)c1C#N,TYPE B1,HEP-2/L-929/VERO,plaque count,0.3 µM
COc1ccc(-c2snc(SC)c2C#N)cc1,TYPE B1,HEP-2,plaque count,>10 µM
CCCc1ccc(CCCOc2c(C)cc(-c3nnn(C)n3)cc2C)o1,-,HeLa,cytopathic effect,0.033–0.659 µg/mL
CSc1nsc(-c2ccc3ccccc3c2)c1C#N,TYPE B1,HEP-2,plaque count,>20 µM
Cc1cc(OCCCc2ccc(C(C)F)nn2)ccc1-c1noc(C(F)F)n1,-,HeLa,cytopathic effect,0.033–0.659 µg/mL
CSc1nsc(C2CCCCC2)c1C#N,TYPE B1,HEP-2,plaque count,>50 µM
CCOC(=O)c1ccc(OCCC2CCN(c3ccc(C)nn3)CC2)cc1,TYPE B1,HEP-2/L-929/VERO,plaque count,3 µM
Cc1cc(OCCCc2ccc(I)nn2)cc(C)c1-c1noc(C(F)F)n1,-,HeLa,cytopathic effect,0.033–0.659 µg/mL

The last 2 rows once more:

compound,strain or isolate,cell line,read by,value
CCOC(=O)c1ccc(OCCC2CCN(c3ccc(C)nn3)CC2)cc1,TYPE B1,HEP-2/L-929/VERO,plaque count,3 µM
Cc1cc(OCCCc2ccc(I)nn2)cc(C)c1-c1noc(C(F)F)n1,-,HeLa,cytopathic effect,0.033–0.659 µg/mL